Anti-infective test results gathered from many reports (values: NIAID ChemDB through PubChem).

All rows: tests in culture; species: Mycobacterium tuberculosis

Blank or dashed fields: not listed here. Neighbouring rows are from separate reports. Two numbers with a dash give a range or band. MIC bound: limit read from a one-dose screen. ECn is the concentration giving n% inhibition of infection, replication or growth. MIC50, MIC90 and the like: level of inhibition, or share of isolates inhibited. Percent inhibition refers to the dose given; in toxicity tests it is the harm to the cells.

smiles	cell line	read by	strain	tested at	conditions	measure	value
Cc1c2ccncc2c(C)c2c1[nH]c1ccc(Cl)cc12		resazurin	H37Rv			MIC	0.78 µg/mL
C/C(=N\NC(=O)c1ccncc1)c1ccccc1F	Macrophages	colony count	Erdman		inside macrophages	EC50	<0.081 µg/mL
O=C(Cc1csc2nc(-c3ccc(Br)cc3)cn12)N/N=C1\SCC(=O)N1c1ccc(Br)cc1			H37Rv	6.25 µg/mL		inhibition	0%
CC(NNC(=O)c1ccncc1)c1cccc(C(F)(F)F)c1			Isoniazid-resistant			MBC	>50 µg/mL
NC(=O)C(CO)NC(=O)c1cccnc1		BACTEC	H37Rv			MIC bound	>12.5 µg/mL
O=C(Cc1csc2nc(-c3ccccc3)cn12)N/N=C/c1cc(Br)ccc1O			H37Rv			MIC	>12.5 µg/mL
CCOC(=O)c1ccc(-c2ccc(C)cc2)nc1C			H37Rv			MIC	>25 µg/mL
Cc1c(Cl)c(=O)oc2cc(OCCN3CCN(Cc4ccc(Br)cc4)CC3)ccc12		fluorescence	H37Rv	100 µM		inhibition	67.94%
COc1cc(Cc2cnc(/N=C3\C(=O)N(CN4CCCCC4)c4ccc(C)cc43)nc2N)cc(OC)c1OC			H37Rv			MIC	22 µg/mL
NNC(=O)c1ccncc1						MIC90	>16 µg/mL
O=C(Cc1csc2nc(-c3ccccc3)cn12)N/N=C/c1ccc([N+](=O)[O-])o1			H37Rv	12.5 µg/mL		inhibition	98%
CC1(C)OC2COC3OC(C)(C)OC3C2O1		BACTEC	H37Rv	6.25 µg/mL		inhibition	0%
CC(C)[C@H]1CO[C@]23CC[C@H](N(CCCC(F)(F)F)Cc4ccc(C(F)(F)F)cc4)C[C@H]2CCC(=O)N13		resazurin				MIC	<0.5 µM
Cc1ccc(-c2cnc(Nc3ccc(OCCCN4CCN(C)CC4)nc3)c(C(N)=O)n2)c(F)c1		resazurin	H37Rv (ATCC 27294)			MIC	<0.5 µg/mL
CC1(C)CCc2nc(-c3ccccc3)ccc2C1=O			H37Rv			MIC	>25 µg/mL
CC(NNC(=O)c1ccncc1)c1ccc(F)cc1			Rifampicin-resistant			MIC	3.13 µg/mL
CCNC(=O)c1nc(-c2ccc(C)c(F)c2)cnc1Nc1cnc(OCCCN2CCN(C)CC2)nc1		resazurin	H37Rv (ATCC 27294)			MIC	16 µg/mL
Fc1ccc(/C=N\n2c(Cc3cccs3)n[nH]c2=S)cc1			H37Rv (ATCC 27294)	6.25 µg/mL		inhibition	60%
COc1ccc(C(=O)Nc2sc(Cc3ccc(OCc4c(Cl)cccc4Cl)cc3)cc2C(=O)O)cc1		resazurin	H37Rv			MIC90	>128 µM
CC1(C)CCc2nc(-c3ccc[nH]3)ccc2C1=O			H37Rv			MIC	25 µg/mL
NNC(=O)c1ccncc1		resazurin	H37Rv			MIC90	0.81 µM
C/C(=N\NC(=O)c1ccncc1)c1ccccc1			H37Rv (isoniazid-resistant)			MIC	>32 µg/mL
COc1ccc(/C=N\n2c(Cc3cccs3)n[nH]c2=S)cc1OCc1ccccc1			H37Rv (ATCC 27294)	6.25 µg/mL		inhibition	63%
CC1(C)CC[C@]2(C(=O)O)CC[C@]3(C)C(=CC[C@@H]4[C@@]5(C)C[C@H](O)[C@H](O)[C@@](C)(O)C5=CC[C@]43C)[C@@H]2C1		resazurin	H37Rv (ATCC 27294)			MIC90	2.5 µg/mL
CC1=CC(O)C(O)C2(C)C1CC1OC(=O)C(O)C3C(C)C(O)C4(O)OCC13C42		BACTEC	H37Rv			MIC	≥128 µg/mL
C=CCNC(=S)NNC(=O)Cc1csc2nc(-c3ccc(Br)cc3)cn12			H37Rv	6.25 µg/mL		inhibition	2%
COc1cc(Cc2cnc(/N=C3\C(=O)N(CN4CCN(c5ccc6c(c5F)c(=O)c(C(=O)O)cn6C5CC5)CC4)c4ccc(C)cc43)nc2N)cc(OC)c1OC			H37Rv			MIC	100 µg/mL
COc1ccccc1C(=O)Nc1sc(Cc2ccc(OCc3c(Cl)cccc3Cl)cc2)cc1C(=O)O		resazurin	H37Rv			MIC90	15.8 µM
CC1=NN(C(=O)c2ccncc2)C(=O)C1N=Nc1ccc(-c2ccc(N)cc2)cc1		BACTEC	H37Rv	12.8 µg/mL		inhibition	-48%
CC(=O)N1CC(N(Cc2ccc(C(F)(F)F)cc2)[C@H]2CC[C@]34OC[C@H](C(C)C)N3C(=O)CC[C@@H]4C2)C1		resazurin				MIC	0.5–5 µM
O=c1cnn([C@@H]2O[C@H](CO)[C@@H](O)[C@H]2O)c(=S)[nH]1		BACTEC	H37Rv			MIC bound	>12.5 µg/mL
CCCCNC(=S)NNC(=O)Cc1csc2nc(-c3ccc(Br)cc3)cn12			H37Rv	6.25 µg/mL		inhibition	0%
S=c1[nH]nc(Cc2cccs2)n1/N=C\c1ccc(Cl)c(Cl)c1			H37Rv (ATCC 27294)	6.25 µg/mL		inhibition	55%
Cc1ccnc(NS(=O)(=O)c2ccc(NC3=CC(=O)C(=O)c4ccccc43)cc2)n1		resazurin	H37Rv	6.25 µg/mL		inhibition	5%
Cc1c(N2C[C@@H]3CCCN[C@@H]3C2)c(F)cn2c(=O)c(C(=O)O)cc(C3CC3)c12			ATCC35801			MIC	0.016 µg/mL
Cc1c(Cl)c(=O)oc2cc(OCc3ccc(Br)cc3)ccc12		fluorescence	H37Rv	100 µM		inhibition	7.14%
O=C(Cc1csc2nc(-c3ccc(Br)cc3)cn12)NNC(=S)Nc1ccccc1			H37Rv	6.25 µg/mL		inhibition	0%
CN1CCN(CCCOc2ncc(Nc3ncc(-c4ccc(C(F)(F)F)c(F)c4)nc3C(N)=O)cn2)CC1		resazurin	H37Rv (ATCC 27294)			MIC	<0.5 µg/mL
CC1CCOn2c1nc1ccccc1c2=O		BACTEC	H37Rv	12.5 µg/mL		inhibition	-2%
CC(=O)Nc1ccc(/C=N/NC(N)=S)cc1F			Isoniazid-resistant			MIC	≤0.1 µg/mL
CC(C)[C@H]1CO[C@]23CC[C@H](N(Cc4ccc(C(F)(F)F)cc4)C4CNC4)C[C@H]2CCC(=O)N13.O=CO		resazurin				MIC	<0.5 µM
COc1cc(Cc2cnc(/N=C3\C(=O)N(CN4CCNCC4)c4ccc(C)cc43)nc2N)cc(OC)c1OC			H37Rv			MIC	24 µg/mL
CCC[CH2][Sn]([Cl])([CH2]CCC)[S]C(=S)NCCNC(=S)[S][Sn]([Cl])([CH2]CCC)[CH2]CCC		resazurin	H37Rv			MIC bound	<6.25 µg/mL
O=C(Cc1csc2nc(-c3ccc(Br)cc3)cn12)N/N=C1\SCC(=O)N1c1ccc([N+](=O)[O-])cc1			H37Rv			MIC	>6.25 µg/mL
CO[C@H]1/C=C/O[C@@]2(C)Oc3c(C)c(O)c4c(O)c(cc(O)c4c3C2=O)NC(=O)/C(C)=C\C=C\[C@H](C)[C@H](O)[C@@H](C)[C@@H](O)[C@@H](C)[C@H](OC(C)=O)[C@@H]1C			H37Rv (thioamide-resistant)			MIC	6.3 µg/mL
C[C@@H]1CN(c2c(F)c(N)c3c(=O)c(C(=O)O)cn(C4CC4)c3c2F)C[C@H](C)N1						MIC90	0.5 µg/mL
CC(NNC(=O)c1ccncc1)c1ccc(Cl)c(Cl)c1			Isoniazid-resistant			MIC	>50 µg/mL
CC1C(=O)c2cc3c(cc2CCN(C)Cc2c1ccc1c2OCO1)OCO3		BACTEC	H37Rv			MIC bound	>12.8 µg/mL
Cc1c(C#N)c(=O)oc2cc(OCc3ccccc3)ccc12		fluorescence	H37Rv	100 µM		inhibition	44.56%
CC[C@@H](CO)NCCN[C@@H](CC)CO						MIC90	8 µg/mL
CCc1cccc(C(C)C)c1NC(=O)C(=O)CC(=O)c1sc(Nc2c(CC)cccc2C(C)(C)C)nc1C		resazurin	H37Rv			MIC bound	>6.25 µg/mL
CCN1C(=O)CS/C1=N\NC(=O)Cc1csc2nc(-c3ccc(Br)cc3)cn12			H37Rv	6.25 µg/mL		inhibition	0%
CC(C)[C@H]1CO[C@]23CC[C@H](N(Cc4ccc(C(F)(F)F)cc4)C4CN(CCC(F)(F)F)C4)C[C@H]2CCC(=O)N13		resazurin				MIC	<0.5 µM
O=C(Cc1csc2nc(-c3ccc(Br)cc3)cn12)NNC(=S)Nc1ccc(Br)cc1			H37Rv			MIC	>6.25 µg/mL
O=C(N/N=C/c1cccc(C(F)(F)F)c1)c1ccncc1			H37Rv (rifampin-resistant)			MIC	1 µg/mL
CC(C)[C@H]1CO[C@]23CC[C@H](N(CCF)Cc4ccc(C(F)(F)F)cc4)C[C@H]2CCC(=O)N13		resazurin				MIC	0.5–5 µM
O=C(N/N=C/c1cccc(F)c1)c1ccncc1			H37Rv (ciprofloxacin-resistant)			MIC	4 µg/mL
CC(C)[C@H]1CO[C@]23CC[C@H](N(Cc4ccc(C(F)(F)F)cc4)CC4CN(C(=O)OC(C)(C)C)C4)C[C@H]2CCC(=O)N13		resazurin				MIC	<0.5 µM
Cc1c(C#N)c(=O)oc2cc(OCc3ccc(Br)cc3)ccc12		fluorescence	H37Rv	100 µM		inhibition	66.48%
Nc1nc(N)c2c(n1)CN(Cc1ccc(Cl)cc1)C2		BACTEC	H37Rv	12.5 µg/mL		inhibition	38%
O=C(Cc1csc2nc(-c3ccc(Br)cc3)cn12)NNC(=S)Nc1ccc([N+](=O)[O-])cc1			H37Rv			MIC	>6.25 µg/mL
O=C1CCS(=O)(=O)C(=O)N1c1ccccc1		resazurin	H37Rv	6.25 µg/mL		inhibition	-16%
S=c1[nH]nc(Cc2cccs2)n1/N=C\c1ccc2c(c1)OCO2			H37Rv (ATCC 27294)	6.25 µg/mL		inhibition	57%
COc1cc(Cc2cnc(/N=C3\C(=O)N(CN4CCN(c5c(OC)cc6c(c5F)c(=O)c(C(=O)O)cn6C5CC5)CC4C)c4ccc(C)cc43)nc2N)cc(OC)c1OC			H37Rv			MIC	100 µg/mL
O=C(Cc1csc2nc(-c3ccccc3)cn12)N/N=C/c1ccc([N+](=O)[O-])cc1			H37Rv			EC50	<12.5 µg/mL
COCC(=O)N1CC(N(Cc2ccc(C(F)(F)F)cc2)[C@H]2CC[C@]34OC[C@H](C(C)C)N3C(=O)CC[C@@H]4C2)C1		resazurin				MIC	0.5–5 µM
COc1cc([N+](=O)[O-])c(S(=O)(=O)O)cc1-n1nc(C(=O)Nc2ccccc2)n[n+]1-c1cc(S(=O)(=O)O)c([N+](=O)[O-])cc1OC		BACTEC	H37Rv	12.5 µg/mL		inhibition	17%
O=C(NNCc1ccccc1F)c1ccncc1			H37Rv			MBC	>6.25 µg/mL
O=C1C(=Cc2ccccc2)N=C(c2ccccc2)N1n1c(-c2ccccc2)nc2ccccc2c1=O		BACTEC	H37Rv	12.5 µg/mL		inhibition	91%
O=C(Cc1csc2nc(-c3ccccc3)cn12)N/N=C/C=C/c1ccc([N+](=O)[O-])o1			H37Rv			EC50	<12.5 µg/mL
S=c1nc2[nH]c3ccc(Br)cc3c2n[nH]1		resazurin	H37Rv	6.25 µg/mL		inhibition	39%
CCOC(=O)c1ccc(-c2ccc(Cl)cc2)nc1C			H37Rv			MIC	>25 µg/mL
O=C(Cc1csc2nc(-c3ccccc3)cn12)N/N=C/c1ccc(C(=O)O)cc1			H37Rv			EC50	>12.5 µg/mL
CCN(CC)CC(O)CNC(=O)c1c2nc3c(C(=O)NCC(O)CN(CC)CC)ccc(C)c3oc-2c(C)c(=O)c1N		resazurin	H37Rv			MIC	3.13 µg/mL
Cc1cc(=O)oc2cc(OCCN3CCC(Cc4ccccc4)CC3)ccc12		fluorescence	H37Rv	1 µM		inhibition	4.9%
O=c1c(Cl)c2cc3c(cc2c2ccccc12)nc1ccccc1n3Cc1ccc([N+](=O)[O-])cc1		BACTEC	H37Rv	12.5 µg/mL		inhibition	21%
CO[C@H]1/C=C/O[C@@]2(C)Oc3c(C)c(O)c4c(O)c(c(/C=N/N5CCN(C)CC5)c(O)c4c3C2=O)NC(=O)/C(C)=C\C=C\[C@H](C)[C@H](O)[C@@H](C)[C@@H](O)[C@@H](C)[C@H](OC(C)=O)[C@@H]1C		resazurin	H37Rv			MIC90	0.08 µM
CCc1ccc(C(=O)N/N=C(\C)[C@]2(O)Cc3c(O)c4c(c(O)c3[C@H](O[C@H]3C[C@H](N)[C@H](O)[C@H](C)O3)C2)C(=O)c2c(OC)cccc2C4=O)cc1			H37Rv			MIC	>12.5 µg/mL
CN(C)CCCOc1cccc(Nc2nccnc2C(N)=O)c1		resazurin	H37Rv (ATCC 27294)			MIC	>32 µg/mL
O=C1C[N+]2(CCCCC2)c2ccc(Cl)cc2N1		resazurin	H37Rv	6.25 µg/mL		inhibition	11%
Cc1ccc(-c2cnc(Nc3cccc(O)c3)c(C(N)=O)n2)cc1		resazurin	H37Rv (ATCC 27294)			MIC	>32 µg/mL